Results of unrelated studies side by side (data: NIAID ChemDB).

Shared fields: host cell toxicity; cells: Huh7; measure: CC50

a–b is a range or a potency band.

CC(C)c1cccc(C(C)C)c1Nc1s[nH]c(=O)c1C#N ; result: >50 µM
CN1CCN([C@@H](C(=O)N2CCC[C@H]2C(=O)Nc2ccc(C#Cc3ccc(NC(=O)[C@@H]4CCCN4C(=O)[C@@H](c4ccccc4)N4CCN(C)CC4)cc3)cc2)c2ccccc2)CC1 ; read by: resazurin ; result: 6.02 µM
CCN(CC)C(=O)N1CCN(c2nc(N)nc3ncc(-c4ccc(OC)c(OC)c4)nc23)CC1 ; read by: ATP ; result: >20 µM
N#Cc1c(Nc2ccccc2F)s[nH]c1=O ; result: >50 µM
COCCNc1nc(N)nc2ccc(-c3ccc(NC(=O)C(C)C)cc3)nc12 ; result: 10–20 µM
O=C(Nc1ccc(C#Cc2ccc(NC(=O)[C@@H]3CCCN3C(=O)C(c3ccccc3)N3CC[C@@H](O)C3)cc2)cc1)[C@@H]1CCCN1C(=O)C(c1ccccc1)N1CC[C@@H](O)C1 ; read by: resazurin ; result: >10 µM
Cc1cccc(C)c1Sc1ccc(Nc2s[nH]c(=O)c2C#N)cc1 ; result: <50 µM
CN(C)[C@@](C)(C(=O)N1CCC[C@H]1C(=O)Nc1ccc(C#Cc2ccc(NC(=O)[C@@H]3CCCN3C(=O)[C@@](C)(c3ccccc3)N(C)C)cc2)cc1)c1ccccc1 ; read by: resazurin ; result: 3.11 µM
N#Cc1c(NC2CCCCC2)s[nH]c1=O ; result: >50 µM
CCOc1nc(N)nc2ccc(-c3ccc(C(=O)NOC)cc3)nc12 ; result: >20 µM
COc1ccc(-c2cnc3nc(N)nc(N4CCN(CC5OCCO5)CC4)c3n2)cc1OC ; read by: ATP ; result: >20 µM
N#Cc1c(NCC2CC2)s[nH]c1=O ; result: >50 µM
CCCCNC(=O)c1ccc(-c2ccc3nc(N)nc(OCC)c3n2)cc1 ; result: >20 µM
COc1ccc(-c2cnc3nc(N)nc(N4CCN(C(=O)Nc5ccccc5)CC4)c3n2)cc1OC ; read by: ATP ; result: <10 µM
O=C(Nc1ccc(C#Cc2ccc(NC(=O)[C@@H]3CCCN3C(=O)[C@H](c3ccccc3)N3CCC(O)CC3)cc2)cc1)[C@@H]1CCCN1C(=O)[C@H](c1ccccc1)N1CCC(O)CC1 ; read by: resazurin ; result: 5 µM
COc1ccc(-c2cnc3nc(N)nc(N4CCN(S(=O)(=O)c5ccccc5)CC4)c3n2)cc1OC ; read by: ATP ; result: 10–20 µM
CCCCNC(=O)c1ccc(-c2ccc3nc(N)nc(OC(C)C)c3n2)cc1 ; result: >20 µM
COc1ccc(-c2cnc3nc(N)nc(N4CCN(S(=O)(=O)Cc5ccccc5)CC4)c3n2)cc1OC ; read by: ATP ; result: >20 µM
CC(=O)N(C)[C@H](C(=O)N1CCC[C@H]1C(=O)Nc1ccc(C#Cc2ccc(NC(=O)[C@@H]3CCCN3C(=O)[C@H](c3ccccc3)N(C)C(C)=O)cc2)cc1)c1ccccc1 ; read by: resazurin ; result: >10 µM
COc1ccc(-c2cnc3nc(N)nc(N4CCN(CCc5ccccc5)CC4)c3n2)cc1OC ; read by: ATP ; result: 10–20 µM
COC(=O)c1ccccc1Nc1s[nH]c(=O)c1C#N ; result: >50 µM

Repeating the first 2 entries:

CC(C)c1cccc(C(C)C)c1Nc1s[nH]c(=O)c1C#N ; result: >50 µM
CN1CCN([C@@H](C(=O)N2CCC[C@H]2C(=O)Nc2ccc(C#Cc3ccc(NC(=O)[C@@H]4CCCN4C(=O)[C@@H](c4ccccc4)N4CCN(C)CC4)cc3)cc2)c2ccccc2)CC1 ; read by: resazurin ; result: 6.02 µM

Lines come from different laboratories, so protocols vary. CCn: concentration that lowers growth or viability of the cells by n%.